Measured values published in PMC5388806.
For some assays here: Tags and fusion partners may be left off the protein sequences shown. For some assays here: For at least one entry, the source does not settle the construct or the ends of the probe.

Protein sequences, listed by entry. Tags and fused reporters are not part of them. Lines headed by an entry give the natural chain unless they say otherwise; changes in a name come on top.
UniProt P39897: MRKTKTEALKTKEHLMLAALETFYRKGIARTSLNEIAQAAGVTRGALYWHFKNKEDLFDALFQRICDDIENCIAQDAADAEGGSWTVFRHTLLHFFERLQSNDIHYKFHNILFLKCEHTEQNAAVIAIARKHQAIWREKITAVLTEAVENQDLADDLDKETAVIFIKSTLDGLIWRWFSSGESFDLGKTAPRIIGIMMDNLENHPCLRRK

Tests used:
GdhR-His = test system: T1, GdhR-His; assay: EMSA with competition; conditions: 1 ug GdhR-His, 50x and 100x unlabeled PgdhA; 30 ul reaction buffer (composition not stated), room temperature; 6% native PAGE at 4 C; 2 ug MtrR-MBP or 1 ug GdhR-His; recombinant protein; residues 1-259; protein details: His (pET15b, NdeI/BamHI); label: 32P; probe letters rebuilt from the primers and the genome
T1 sequence (looked up): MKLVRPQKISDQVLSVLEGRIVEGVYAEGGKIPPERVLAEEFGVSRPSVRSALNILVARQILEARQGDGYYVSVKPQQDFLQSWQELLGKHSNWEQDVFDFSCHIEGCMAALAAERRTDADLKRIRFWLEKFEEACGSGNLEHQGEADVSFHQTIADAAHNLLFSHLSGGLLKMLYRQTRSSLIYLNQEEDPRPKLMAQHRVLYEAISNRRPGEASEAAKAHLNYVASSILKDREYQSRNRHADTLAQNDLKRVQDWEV

[1] = biological target: MtrR-MBP (Neisseria gonorrhoeae) (UniProt P39897); assay: EMSA; conditions: 2 ug MtrR-MBP, complete shift; 30 ul reaction buffer (composition not stated), room temperature; 6% native PAGE at 4 C; 2 ug MtrR-MBP or 1 ug GdhR-His; recombinant protein; protein details: MBP fusion; label: 32P; probe letters rebuilt from the primers and the genome

Sequence | binding result (GdhR-His) | binding result [1]
GTTGTTGGCAATTTCAGCCCTTTTTCACAGCAAAAGCAGGCGTGAAAACAAAATTATCTTGATTGGAATCAAAAAATCTAGTTTAACTACTTAGAATAAAATTCCAATAATATTTTTTATTTGAGAAATTAATTTATGATTATTGGTTGATTATCGGCAATAAACATCATATATCGAAAATATGGGAAAAATAATGTCAACAATTTGTGCAAAATTAGGCTTGGCATCAGAAAAAAATAGGTTTATATTGCCAACTACAAATTTGTTTTCCCATTAGTACAATATCAACCAAAAGGAGTATCCGAATGACG (double strand) [PgdhA] | binds | –
GTTTCATCACTCCTCCTTTATAAAGATTCCCTGCAGAACCCTTCCGAAATACATCAAACATCAAATTGGACTGGCCAATCAGGGCGGATTCTAATGACACGCCGTTCCCGCCGTCAACGGCACTTACCTCGCACCGCCCCCGAAACACAGGAAAAAACTACACCAAACTACAATTTTTGTTCATGCAAATATTTGTTTTAACGGGATTTAAATGAAAGCTCCGATTCAAATCTGCCGAACCGCCCAAAAATATATTGACCTGAATATTAAAGTTTCGTAAAGTAATGCAACGTTGCTTTAATTGGTTTGACCACTATTGCCGACGATTAGAAAAATATTTTCGGAGATGTTCAATTATGGAAACTTGGGTTCAAAACTACACGGCAATCGGCG (double strand) [R3/R2 (gdhR promoter)] | – | binds
